PubChem BioAssay AID504761 – Drosophila RNAi Screening Center, 2011
In all, the deposit lists about 22,000 reagents; this is an unselected part of those that have a named target and a result. Over the whole deposit, 116 (0.52%) are marked active. 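Calls depend on retest data that are not deposited; infection was ranked per plate without normalising between plates; the unit of the infection score is not given.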 The raw values are shown without normalisation. A number with no mark means an inactive call. A plus sign joins genes that one reagent is predicted to hit. The record does not give: the amount of reagent, the time to read-out.

Aim: 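Genome-wide fly cell screen for genes dengue virus requires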 (primary screen)
System: D.Mel-2 cells from Drosophila
Reagent: long dsRNA against Drosophila genes
Treatment: infection with dengue virus type 2; dose and infection time not stated
Measured: 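Cells stained for dengue envelope protein and imaged; percent of infected cells per well on duplicate plates, ranked by infection, with stained nuclei counted for cell number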
Scale: infection score: higher = more virus-infected cells; cell count: higher = more cells in the well
Rule for the call: 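Low infection ranks in the two replicates (chance level up to 0.065) followed by a retest with a 1.5-fold or larger significant decrease, p below 0.05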
Meaning of the calls: active = confirmed: knock-down lowers infection; inactive = not picked or not confirmed

gene	amplicon	infection score, replicate 1	infection score, replicate 2	cell count, replicate 1	cell count, replicate 2
HGTX	DRSC09319	5.29	1.48	6181	5756
HGTX	DRSC11181	1.77	3.02	6117	6461
CG12009	DRSC08217	6.45	13.4	6605	4558
CG12009	DRSC26937	4.88	16.1	6169	6252
CG34409	DRSC14577	0.68	2.35	6361	6007
CG34409	DRSC21667	1.82	3.4	5870	5846
CG14443	DRSC17936	2.9	4.85	6551	6860
betaGlu (beta glucuronidase)	DRSC15419	1.78	1.81	6066	6524
betaGlu (beta glucuronidase)	DRSC24889	15.9	3.92	5041	5869
CG9919	DRSC20219	11.9	4.72	6425	6329
Mccc2 (Methylcrotonoyl-CoA carboxylase 2)	DRSC04987	18.4	14.7	5319	4877
CG14277	DRSC02380	6.1	17.7	5496	5022
CG9948	DRSC11104	12.8	10.2	6115	6299
CG17493	DRSC03798	5.83	8.8	6592	6943
Timp (Tissue inhibitor of metalloproteases)	DRSC17082	15	16.7	5923	6095
CG33453	DRSC05782	2.07	1.08	6150	5530
CG5267	DRSC06928	9.56	12.4	6422	6763
CG12194	DRSC00345	8.15	4.85	6257	6766
CG12194	DRSC24918	8.26	16.9	2844	4295
CG10660	DRSC09769	4.2	5.01	4146	4633
CG10660	DRSC29040	16.4	14	4152	2242
l(2)gd1 (lethal (2) giant discs 1)	DRSC02773	10.7	3.05	6060	5900
l(2)gd1 (lethal (2) giant discs 1)	DRSC29178	30.4	18.1	5288	3853
Ir64a (Ionotropic receptor 64a)	DRSC09759	3.63	3.37	6342	6142
Ir64a (Ionotropic receptor 64a)	DRSC09760	14.8	3.17	5922	5451
Rim2 (Replication in mitochondria 2)	DRSC00520	3.15	2.34	6356	6025
Rim2 (Replication in mitochondria 2)	DRSC22699	3.74	19.1	6824	6217
Cht4 (Chitinase 4)	DRSC04603	9.23	28.4	6856	6693
Tsp42Eh (Tetraspanin 42Eh)	DRSC06190	18	16.9	6046	5414
CG17111	DRSC15174	3.77	2.29	6585	6551
CG17111	DRSC26175	13.1	2.19	5343	6710
CG15449	DRSC20521	10.1	3.34	5764	5365
CG3288	DRSC11745	6.06	7.34	6026	6338
CG32240	DRSC08093	2.23	2.67	6815	5879
Vps33B (Vacuolar protein sorting 33B)	DRSC15722	5.21	2.13	6609	6530
LysD + LysB + LysC (retired record)	DRSC21249		0.06 (active)		6262
nocte (no circadian temperature entrainment)	DRSC18123	8.85	3.95	5232	6602
nocte (no circadian temperature entrainment)	DRSC28453	3.57	5.34	1624	5208
Rcd1 (Reduction in Cnn dots 1)	DRSC07116	0.58	21.9	346	4966
Rcd1 (Reduction in Cnn dots 1)	DRSC23713	7.1	5.95	5478	5715
kdn (knockdown)	DRSC18328	5.06	15	6404	5706
CG5323	DRSC06929	1.64	4.1	5735	6273
Pex12 (Peroxin 12)	DRSC00622	4.66	1.3	6348	6439
Pex12 (Peroxin 12)	DRSC27149	3.46	11	6191	6824
CG5397	DRSC00683	4.68	2.44	6234	6157
CG5397	DRSC28535	15.4	14.5	6209	2538
Cals (Calsyntenin)	DRSC17196	9.18	6.47	6342	6630
Cals (Calsyntenin)	DRSC21661	2.64	4.74	6181	6732
CG14367	DRSC14829	3.68	4.04	6413	6259
CG4716	DRSC06884	13.2	8.49	6054	5819
CG4716	DRSC26611	5.45	6.21	6262	6067
Evi5 (Ecotropic viral integration site 5)	DRSC19421	3.79	2.87	6456	6965
Evi5 (Ecotropic viral integration site 5)	DRSC27334	5.54	20.3	6355	6386
MtnD (Metallothionein D)	DRSC22733	6.43	9.37	6828	6246
Dyrk3 (Dual-specificity tyrosine phosphorylation-regulated kinase 3)	DRSC21055	9.08	7.07	6188	6717
CG2839	DRSC00544	3.21	1.72	6580	6355
CG2839	DRSC28090	32	16.6	5219	5497
CG5612	DRSC15844	3.37	8.84	6348	5179

Reagents listed above marked active (1):
gene	amplicon	infection score, replicate 1	infection score, replicate 2	cell count, replicate 1	cell count, replicate 2
LysD + LysB + LysC (retired record)	DRSC21249		0.06 (active)		6262
